Data on six molecules can be found in the supplement of paper PMC9931576.

To fix the notation:
B1: BD57-0199 (protein)
chain 1: QVQLQESGPGLVKPSQTLSLTCSVSGGSLITSYYYWSWIRQRPGKGLEWIGYIYHSGNTYYNPSLKSRVTISIDTSTNEISLKLTSVTAADTAVYFCARDFGGNANYFGYWGQGSLVTVSS
chain 2: DIQMTQSPASLPASVGDRVTITCQASQDISKYLSWYQQKPGKAPNLLIYDASDLETGVPSRFSGSGSGTKFTFTISSLQPEDFATYYCQQYANLPITFGQGTRLETK
B2: BD57-0194 (protein)
chain 1: EVQLVESGGGLVQPGRSLTLSCVGSGFTFDDYAMHWIRQAPGKGLEWVSGLSWNGGTIDYVDSVKGRFIISRDPVKNSLYLHMRSLRVEDTGIYYCVKDKKTNYGSGSKRWDTSHYFDDWGQGTLVTVSS
chain 2: DIQMTQSPSSVSASVGGRVTITCQASQDISNYLNWYQQKPGKAPKLLISDASNLEKGVPSRFSGRGSGTDFTFTISRLEPEDIATYYCQQYDDPPLTFGGGTKVEIK
B3: BD57-0202 (protein)
chain 1: EVQLVQSGPEVKKPGESLNISCKASGYSFSTYWIAWVRQMPGKGLEWMGMIYPGDSDTRYSPSFQGQVTISADNSINTAYLQWSSLKASDTAIYYCATGSQWPPYYYYMDVWGKGTTVIVSS
chain 2: DIQMTQSPSSLSASVGDRVTITCRASQSIGDYVNWYQQKPGRAPKLLISAASSLQRGVPSRFSGSGSGTDFSLTISSLQPEDFATYYCQQSYTILWTFGQGTKVDIK
B4: BD57-0198 (protein)
chain 1: QVQLQESGPGLVKPSQTLSLTCTVSGGSISSGDFYWSWIRQLPGKGLEWIGYIYYSGGTFYNPSLRSRLSISVDTSKNQFSLKLSSVTAADTAVYYCARDKDYSDSGGPAVTWGVAAFDIWGQGTMVTVSS
chain 2: DIQMTQSPSSLSASVGDRVTITCQASQDISNYLNWYQQKPGKAPKLLIYDASNLETGVPSRFTGSGSGTDFTFTISSLQPEDIATYYCQQYDNLPPTFGQGTKVEVK
B5: BD57-0203 (protein)
chain 1: EVQLVESGGGLVKPGGSLRVSCAASGFTFSDYSMNWVRQAPGRGLEWVSSISPRNSNRFYADSVKGRFTISRDNAKNSLYLQMSSMRAEDTAVYYCARGDLWGFDLVIGVAGHFDYWGPGTLVTVSS
chain 2: EIVLTQSPGTLSLSPGERATLSCRASQSVSSSSLAWYQQKPGQAPRLVIYGSSSRAAGIPDRFSGFGSGTDFTLTISRLEPEDFAMYYCQQFGTSPLYTFGQGTKLEIK
B6: BD57-0195 (protein)
chain 1: QVQLQESGPGLVKPSQTLSLTCTVSGDSISRGGYYWSWIRQHPGKGLEWIGHIYYSGSTYYNPSLKSRVAISVDTSKNHFSLRLSSVTAADTAVYYCARVVDTAAQLDPWGQGTLVTVSS
chain 2: QSVLTQPPSVSAAPGQKVTISCSGSSSNIGNSFVSWYQQFPGRAPKLLIYDDDKRPSGTPDRFSGSKSGTSATLGITGLQTGDEADYYCGTWDSSLNSGVFGGGSKLTVL

Human monoclonal antibodies against the spike receptor-binding domain (heavy:light variable regions). IC50 against pseudoviruses bearing the spike of naturally observed variants; lower = stronger; >10 µg/ml means not reached at the top dose. No active / inactive call. The stated detection limit is 0.0005 µg/ml; values near or below 0.001 µg/ml lie at the floor of the assay. Some results are limits rather than exact numbers.

The target in the first test is SARS-CoV-2 Omicron BA.1 spike pseudovirus. The experiment in a line: pseudovirus neutralization IC50; higher = weaker neutralization. The method, then: (§1)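 Single-round VSV luciferase pseudovirus mixed with antibody dilutions for 1 h and put on Huh-7 cells for about a day; IC50 from the dose curve.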
Regarding B1, the “pseudovirus neutralization IC50” value came to 3.43 µg/mL.
For B2, the “pseudovirus neutralization IC50” value came out at 0.174 µg/mL.
Turning to B3, the “pseudovirus neutralization IC50” value stood at 0.883 µg/mL.
Same read-out and setting: the result for B4 reads more than 10 µg/mL; that for B5, 3.07 µg/mL; that for B6, 1.2 µg/mL.

Another test concerns the target SARS-CoV-2 Omicron BA.2 spike pseudovirus. The test is described as above. The method, then:
as §1
In the case of B1, the “pseudovirus neutralization IC50” value is 5.55 µg/mL.
In the case of B2, the “pseudovirus neutralization IC50” value was 0.12 µg/mL.
With B3, the “pseudovirus neutralization IC50” value worked out at 1.28 µg/mL.
For the molecule B4, the “pseudovirus neutralization IC50” value was more than 10 µg/mL.
For B5, the “pseudovirus neutralization IC50” value came to 1.77 µg/mL.
Same read-out and setting: the result for B6 reads 2.04 µg/mL.

The target of the next test is SARS-CoV-2 Omicron BA.2.75 spike pseudovirus. The test is described as above. The method, then:
as §1
B1: the “pseudovirus neutralization IC50” value came to 3.38 µg/mL.
B2: the “pseudovirus neutralization IC50” value is 0.0169 µg/mL.
The same measure, in the same setting: the value for B3 was 0.968 µg/mL; that for B4 was more than 10 µg/mL; that for B5 was 3.03 µg/mL.
Still for that read-out and setting: the result for B6 reads 1.97 µg/mL.

A further test concerns the target SARS-CoV-2 Omicron BA.5 spike pseudovirus. The description is as above. Here is the method:
as §1
Take B1: the “pseudovirus neutralization IC50” value amounted to 5.64 µg/mL.
The same measure, in the same setting: the value for B2 was 0.143 µg/mL.
B3: the “pseudovirus neutralization IC50” value is 1.3 µg/mL.
The same measure, in the same setting: the result for B4 reads more than 10 µg/mL.
On to B5, for which the “pseudovirus neutralization IC50” value was 9.03 µg/mL.
On the same count and under the same terms, the result for B6 reads 2.85 µg/mL.

A further test deals with SARS-CoV-2 Omicron BQ.1.1 spike pseudovirus. The test is described as above. Here is the method: as §1
With B1, the “pseudovirus neutralization IC50” value turned out to be 5.2 µg/mL.
As for B2, the “pseudovirus neutralization IC50” value was found to be 2.94 µg/mL.
Turning to B3, the “pseudovirus neutralization IC50” value came to 2.2 µg/mL.
As to B4, the “pseudovirus neutralization IC50” value was more than 10 µg/mL.
Turning to B5, the “pseudovirus neutralization IC50” value was more than 10 µg/mL.
Still for that read-out and setting: the value for B6 was more than 10 µg/mL.

For a further test, the target named is SARS-CoV-2 Omicron XBB spike pseudovirus. The description is as above. Here is the method: as §1
B1: the “pseudovirus neutralization IC50” value is 4.58 µg/mL.
B2: the “pseudovirus neutralization IC50” value amounted to 0.403 µg/mL.
On to B3, for which the “pseudovirus neutralization IC50” value turned out to be 2.1 µg/mL.
Still for that read-out and setting: the result for B4 reads more than 10 µg/mL; that for B5, 9.02 µg/mL; that for B6, 2 µg/mL.

Another test deals with SARS-CoV-2 early D614G spike pseudovirus. The test is described as above. The method, then: as §1
On to B1, for which the “pseudovirus neutralization IC50” value was more than 10 µg/mL.
Same read-out and setting: the value for B2 was 0.0142 µg/mL.
Same read-out and setting: the result for B3 reads 9.39 µg/mL; that for B4, more than 10 µg/mL; that for B5, more than 10 µg/mL.
The same measure, in the same setting: the value for B6 was more than 10 µg/mL.
